Each substance was assayed on O=c1ccn([C@@H]2O[C@H](COP(=O)(O)OP(=O)(O)O[C@H]3O[C@@H]([C@H](O)CO)[C@H](O)[C@H]3O)[C@@H](O)[C@H]2O)c(=O)[nH]1 (assay: purified protein). Settings: 25 mM HEPES, 125 mM NaCl, 20 mM dithionite, pH 7.5, 37 °C.
“AfUGM K344A/K345A (background of all active site variants) (Aspergillus fumigatus; K344A/K345A/Q107A)” was tested, and the Km was 2153 ± 570 µM, the kcat was 4.7 s⁻¹ and the kcat/Km was 2000 M⁻¹ s⁻¹. For “TcUGM (Trypanosoma cruzi strain CL Brener; Y317F)”, the Km was 334 ± 38 µM, the kcat was 0.3 s⁻¹ and the kcat/Km was 860 M⁻¹ s⁻¹. “TcUGM (Trypanosoma cruzi strain CL Brener; Y100A)” showed a Km of 32 ± 12 µM, a kcat of 0.03 s⁻¹ and a kcat/Km of 800 M⁻¹ s⁻¹. “TcUGM (Trypanosoma cruzi strain CL Brener; Q103A)” showed a Km of 478 ± 172 µM, a kcat of 0.14 s⁻¹ and a kcat/Km of 300 M⁻¹ s⁻¹. “AfUGM K344A/K345A (background of all active site variants) (Aspergillus fumigatus; K344A/K345A/Y317A)” showed a Km of 380 ± 129 µM, a kcat of 0.28 s⁻¹ and a kcat/Km of 700 M⁻¹ s⁻¹. In the case of “AfUGM K344A/K345A (background of all active site variants) (Aspergillus fumigatus; K344A/K345A/N207A)”, the Km was 166 ± 73 µM, the kcat was 0.13 s⁻¹ and the kcat/Km was 800 M⁻¹ s⁻¹. “AfUGM K344A/K345A (background of all active site variants) (Aspergillus fumigatus; K344A/K345A/Y104A)” was tested, and the Km was 57 ± 17.5 µM, the kcat was 0.17 s⁻¹ and the kcat/Km was 3000 M⁻¹ s⁻¹.

— PMC4270374
